Measured values reported in patent US6599747B1, “Soil test” (University of Lancaster, priority 1998, dated 2003).

Tested on: catabolocally active microbial culture
Experiment: Respirometry: mineralisation of soil-associated 14C-9-phenanthrene (biodegradability)
Details: for Concentration Mineralized by microbes: mineralisation to plateau (240 h)

c1ccc2c(c1)ccc1ccccc12 [phenanthrene]
correlation of HPCD-extracted amount with amount biodegraded: slope (25 and 50 mg kg^−1 spikes, ageing 1, 42, 84 d): 1.041 | Concentration Mineralized by microbes (soil spiked 25 mg/kg^−1, aged 1 d): 18.2 mg/kg^−1 | Concentration Mineralized by microbes (soil spiked 25 mg/kg^−1, aged 42 d): 14.9 mg/kg^−1 | Concentration Mineralized by microbes (soil spiked 25 mg/kg^−1, aged 84 d): 14.7 mg/kg^−1 | Concentration Mineralized by microbes (soil spiked 50 mg/kg^−1, aged 1 d): 32.0 mg/kg^−1 | Concentration Mineralized by microbes (soil spiked 50 mg/kg^−1, aged 42 d): 17.8 mg/kg^−1 | Concentration Mineralized by microbes (soil spiked 50 mg/kg^−1, aged 84 d): 1.1 mg/kg^−1
